# Residue numbers refer to the chain shown, from its start. Human monoclonal antibodies against the spike receptor-binding domain (heavy:light variable regions). IC50 against pseudoviruses bearing the spike of naturally observed variants; lower = stronger; >10 µg/ml means not reached at the top dose. No active / inactive call. The stated detection limit is 0.0005 µg/ml; values near or below 0.001 µg/ml lie at the floor of the assay.
# B1: BD56-514 (protein)
# chain 1: EVQLVQSGAEVKKPGESLKISCKGSGYRFTSHWIGWVRQMPGKGLEWMGIIHLDDSDTRYSPSFQGLVTISVDKSISTAYLEWSSLTASDTAMYYCATSNPPGGFPEWFDPWGQGTLVTVSS
# chain 2: QSALTQPASVSGSPGQSITISCTGTSSDVGGYDYVSWYQQHPGKAPKLMIFDVSKRPSGVSNRFSGSKSGNTASLTISGLQAEDEADYYCNSYTSSNIYVVFGGGTRLTVL
# B2: BD56-483 (protein)
# chain 1: EVQLVESGGGLVQPGGSRRLSCGVSGFIFSDYEMNWVRQAPGKGLEWLAYISTSGNSKNYADSVKGRFTISRDNAKNSVYLQMNSLSAEDTAVYYCARAFYSYGSGTLDFWGQGTLVSVSS
# chain 2: DIQMTQSPSSLSASVGDRVTITCRASQTIVNFFNWYQQKPGRAPKLLIYGVSSLQSGVPSRFSGSGSGTDFTLTISSLQPEDFATYYCQQSYSAPPTFGQGTKVEV
# B3: DH1129 (protein)
# chain 1: EVQLVESGGDLVQPGGSLRLSCAASGFTFSSYAMSWVRQAPGKGLEWVSTISTTGGDTYYADSVKGRFTISRDNSKNKLNLQMNSLRAEDTAVYSCARHNELDYWGQGTLVTVSS
# chain 2: EIVLTQSPDFQSVTPNEKVTITCRASQSIGSSLHWYQQKPDQSPKLLIKYASQSFSGVPSRFSGSGSGTDFTLTINSLEAEDGATYYCHQSSSFPRTFGQGTKVEIK
# B4: DH1111 (protein)
# chain 1: EVQLLESGGGLVQPGGSLRLSCAASGFTFSSYAMSWVRQAPGKGLEWVSGISGSGITYNADSVKGRFTISRDNSKNTLYLQMNSLRAEDTAVYYCAKLAVAGGRGANYWGQGTLVTVSS
# chain 2: DIQMTQSPSTLSASVGDRVTITCRASQSISSWLAWYQQKPGKAPKLLIYKASSLESGVPSRFSGSGSGTEFTLTISSLQPDDFATYYCQQYHSWWTFGQGTKVEIK
# B5: BD56-547 (protein)
# chain 1: QVQLVESGGGVVQPGRSLRLSCAASGFTFSSYAIHWVRQAPGKGLEWVAVISSDGSFKYFADSVKGRFSISRDNSKNTLYLQMNSLRAEDTALYYCARETGVPVTYFDYWGQGTLVTVSS
# chain 2: B4 chain 2 with S31G, S56T, P59S, H92Y, W94F
# B6: BD56-508 (protein)
# chain 1: QMQLVQSGPEVKKPGTSVKVSCKASVFTFTVSSVQWVRQARGQGLEWIGWIVVGSGETDYSQKFQERVTITRDMSTGIVYMELTSLRPEDTAVYFCAAPHCNPTTCYDGFDMWGQGTMVAVSS
# chain 2: EIVLTQSPGTLSLSPGERATLSCRASQSVRSSHLAWYQQKPGQAPRLFIYGASSRATGIPDRFSGSRSGTDFTLTISRLEPEDFAVYYCQQYDTSPWTFGQGTKLEIK
# B7: BD56-487 (protein)
# chain 1: EVQVVESGGGLVQPGRSLRLSCVASGFTFEDYAMHWVRQSPGKGLEWVSGVSWNSGIIGYADSVKGRFIISRDNAKNSLYLYMSGLTTEDTAVYYCGKIGGYSAYDIRSFSDGMDVWGQGTTVTVSS
# chain 2: QSVLTQPPSASGTPGQRVAISCSGSTSNIGSNAVNWYQQLPGTAPKLLIYSDNHRPSGVPDRFSGSKSGTSASLAISGLQSEDEADYYCATWDDSLNAHYVFGTGTKVTVL
# B8: BD56-476 (protein)
# chain 1: EVQLVESGGGLVKPGGSLRLSCAASGFTFSSYSMNWVRQAPGKGLEWVSSISSGSSYIDYADSVKGRFTISRDNAKNSLYLQMNSLRAEDTAVYYCARDQYPHEYSSGWYDYYYYYGMDVWGQGTTVTVSS
# chain 2: QSVLTQPPSASGTPGQRVTISCSGSSSNLGSNYVYWYQQLPGTAPKLLIYRNNQRPSGVPDRFSGSKSDTSASLAISGLRSEDEADYYCAAWDDSLSGWVFGGGTKLTVL
# B9: BD56-538 (protein)
# chain 1: QVQLVQSGAEVKKPGSSVRVSCKASGGSFSSYVITWVRQAPGQGLEWMGGIIPIFGTANYAQKFQGRVTITADESTSTAYMELSSLRSEDTAVYFCARESVDTSLVGGFYYFDYWGQGTLVTVSS
# chain 2: DIQMTQSPSSLSASIGDRVTITCRASQSISTYLNWYQQKPGKAPKLLIYAASHLHSGVPSRFSGSGSGTDFTLTISSLQPEDFATYYCQQSDSTPWTFGQGTKVEIQ
# B10: BD56-543 (protein)
# chain 1: EVQLVESGGGLVQPGGSLRLSCAASGFSFSRYDMHWVRQATGKGLEWVATIGTAGDTYYADSVKGRFTISRENAEDSVYLQMNSLRAGDTAVYYCARGGSSNWYWYFDLWGRGTLVTVSS
# chain 2: DIQMTQSPSSLSASVGDRVSITCRASQSIRNSLNWYQQKPGKAPKLLIYATSNLESGVPSRFSGSGSGTDFTLTISSLQRDDFATYYCQQSYSMPPITFGQGTRLETK
# B11: BD56-488 (protein)
# chain 1: EVQLVESGGGLVQPGRSLTLSCGASGFTFEDYAMHWVRQAPGKGLEWVSGSSWNSGTIGYADSVTGRFIISRDNAKNSLYLHMRNMRAEDTAIYYCAKALGWRDEYSFDYWGQGTLVTVSS
# chain 2: QSALTQPASVSGSPGQSISISCTGTSSDVGGYNYVSWYQQHPDKAPKLMIYDVTDRPSGVSDRFSGSKSGNTASLTISGLQAEDEADYYCSSYTINSTLVFGTGTKVTVL
# B12: BD56-529 (protein)
# chain 1: EVQLVESGGGLVQPGGSLRLSCAASGFTFSNYDMHWVRQVTGKGLEWVSTIGTAGDTYYPDSVKGRFTISRENANNSLYLQMNSLRAGDTAVYYCARGDYSHYATYFYYYMDAWGKGTTVTVSS
# chain 2: DIQMTQSPSSLSASVGDRVTITCRASQSIGSYLNWYQQQPGKAPKLLIYAASSLQSGVPSRFSGSGSGTDFTLTISSLQPEDFATYYCQQSYSNPPERSFGPGTKVDIK
# Target: SARS-CoV-2 Omicron BA.1 spike pseudovirus
# Test: pseudovirus neutralization IC50; higher = weaker neutralization
# Method: (§1)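 Single-round VSV luciferase pseudovirus mixed with antibody dilutions for 1 h and put on Huh-7 cells for about a day; IC50 from the dose curve.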
row,Binder,pseudovirus neutralization IC50
1,B1,1.81 µg/mL
2,B2,0.00105 µg/mL
3,B3,> 10 µg/mL
4,B4,> 10 µg/mL
5,B5,7.04 µg/mL
6,B6,0.001 µg/mL
7,B7,0.00808 µg/mL
8,B8,0.334 µg/mL
9,B9,0.00209 µg/mL
10,B10,> 10 µg/mL
11,B11,0.012 µg/mL
12,B12,> 10 µg/mL

# Target: SARS-CoV-2 Omicron BA.2 spike pseudovirus
# Test: as above
# Method: as §1
row,Binder,pseudovirus neutralization IC50
1,B1,1.27 µg/mL
2,B2,0.000837 µg/mL
3,B3,> 10 µg/mL
4,B4,> 10 µg/mL
5,B5,6.57 µg/mL
6,B6,0.00157 µg/mL
7,B7,0.00626 µg/mL
8,B8,0.155 µg/mL
9,B9,0.00147 µg/mL
10,B10,> 10 µg/mL
11,B11,0.00989 µg/mL
12,B12,> 10 µg/mL

# Target: SARS-CoV-2 Omicron BA.2.75 spike pseudovirus
# Test: as above
# Method: as §1
row,Binder,pseudovirus neutralization IC50
1,B1,1.29 µg/mL
2,B2,0.000705 µg/mL
3,B3,> 10 µg/mL
4,B4,> 10 µg/mL
5,B5,8.54 µg/mL
6,B6,0.00124 µg/mL
7,B7,0.0187 µg/mL
8,B8,0.36 µg/mL
9,B9,0.00192 µg/mL
10,B10,> 10 µg/mL
11,B11,0.0201 µg/mL
12,B12,> 10 µg/mL

# Target: SARS-CoV-2 Omicron BA.5 spike pseudovirus
# Test: as above
# Method: as §1
row,Binder,pseudovirus neutralization IC50
1,B1,1.93 µg/mL
2,B2,> 10 µg/mL
3,B3,> 10 µg/mL
4,B4,> 10 µg/mL
5,B5,7.13 µg/mL
6,B6,0.118 µg/mL
7,B7,2.23 µg/mL
8,B8,4.56 µg/mL
9,B9,0.00314 µg/mL
10,B10,> 10 µg/mL
11,B11,1.35 µg/mL
12,B12,> 10 µg/mL

# Target: SARS-CoV-2 Omicron BQ.1.1 spike pseudovirus
# Test: as above
# Method: as §1
row,Binder,pseudovirus neutralization IC50
1,B1,> 10 µg/mL
2,B2,> 10 µg/mL
3,B3,> 10 µg/mL
4,B4,> 10 µg/mL
5,B5,4.79 µg/mL
6,B6,0.276 µg/mL
7,B7,> 10 µg/mL
8,B8,> 10 µg/mL
9,B9,> 10 µg/mL
10,B10,> 10 µg/mL
11,B11,> 10 µg/mL
12,B12,> 10 µg/mL

# Target: SARS-CoV-2 Omicron XBB spike pseudovirus
# Test: as above
# Method: as §1
row,Binder,pseudovirus neutralization IC50
1,B1,> 10 µg/mL
2,B2,> 10 µg/mL
3,B3,> 10 µg/mL
4,B4,> 10 µg/mL
5,B5,5.96 µg/mL
6,B6,> 10 µg/mL
7,B7,0.0737 µg/mL
8,B8,> 10 µg/mL
9,B9,> 10 µg/mL
10,B10,> 10 µg/mL
11,B11,7.47 µg/mL
12,B12,> 10 µg/mL

# Target: SARS-CoV-2 early D614G spike pseudovirus
# Test: as above
# Method: as §1
row,Binder,pseudovirus neutralization IC50
1,B1,0.146 µg/mL
2,B2,0.00277 µg/mL
3,B3,> 10 µg/mL
4,B4,1.16 µg/mL
5,B5,1.53 µg/mL
6,B6,0.00485 µg/mL
7,B7,0.0705 µg/mL
8,B8,0.0383 µg/mL
9,B9,0.00113 µg/mL
10,B10,3.4 µg/mL
11,B11,0.00822 µg/mL
12,B12,> 10 µg/mL

# — the supplement of paper PMC9931576
